Values quoted from earlier work as cited in EP2265632B1, “CD4-RELATED POLYPEPTIDES AND METHODS OF USE” (priority 2008, dated 2009).

Target: gp120 (Human immunodeficiency virus type 1 group M subtype B, UniProt P35961)
Conditions: different target gp120; read-out: published KD value; cited from earlier work

In the case of RINNIPWSEAMM [12p1], the Kd is listed as 3.7 µM.
